Reference: publication PMC4027156

Test system: yabZαE3L (yaba-like disease virus)
Experiment: CD B-to-Z transition
Conditions: recombinant protein

## CGCGCGCGCGCG (double strand) [ds-(dCdG)6]
  binding result: binds

Construct, isoform or probe ends are uncertain for at least one entry. At least one verdict was read from the data and is not stated in words by the source.
